Results published in the supplement of paper PMC9931576.
Human monoclonal antibodies against the spike receptor-binding domain (heavy:light variable regions). IC50 against pseudoviruses bearing the spike of naturally observed variants; lower = stronger; >10 µg/ml means not reached at the top dose. No active / inactive call. The stated detection limit is 0.0005 µg/ml; values near or below 0.001 µg/ml lie at the floor of the assay.

B1: BD56-049 (protein)
chain 1: EEQLLESGGGLVQPGGSLRLSCAASGFTFSSHAMNWVRQAPGKRLEWVSGTTGPGDHTYYADSVKGRFTISRDNSKNTLYLQMSSLRVGDTAVYYCAKVINGNYDSWSGYFDYYYYAMDVWGQGTTVTVSS
chain 2: QSALTQPASVSGSPGQSITIPCTGTSSDVGNFNVVSWYQQHPGAAPKLMIYEVTKRPSGVSVRFSGSKSGNTASLTISGLQAEDEADYYCCSYGGSSSVVFGGGTKLTVL
B2: BD56-027 (protein)
chain 1: EVQLVESGGGLVKPGGSLRLSCAASGFTFNHAWMSWVRQAPGKGLEWVGRMKSIHDGGTADYAAPVKGRFTFSRDDSKKTLYMEMNSLTIEDTAVYYCTTDLDLRSEMGTFEHDAFDSWGQGTMVTVSS
chain 2: DIQMTQSPSSLSASVGDRVSITCRASQSVSSFLNWYQHRPGKAPKLLIYAASSLQSGVPSRFSGSGSGTDFTLTITSLRPEDFATYYCQQTYGAPSFGQGTKVDFK
B3: BD56-040 (protein)
chain 1: QVQLVESGGGVVQPGKSLRLSCAASGFTFTNHGMHWVRQAPGKGLEWVALIWNDGSNQQYADFVRGRFLISRDNSKNTLYLQMNSLRAEDTAVYYCARDGVRYYYGSGSPDYWGQGSLVTVSS
chain 2: DTVMTQTPLSLSVTPGQPASMSCKSSQSLLHTDGKTYLYWYLQKPGQSPQLLIYDLSTRFSGVPERFIGSGSGTDFTLKISRVEAEDVGVYYCMQSLYVPLTFGGGTKVQIK
B4: BD56-046 (protein)
chain 1: EVQLVESGGRVVRPGGSLRLSCAASGFTFDDYGMSWVRQAPGKGLEWVSGINWNGGRTDYADSVKGRFTISRDNARNSLYLQMNSLRAEDTALYHCARDYCGDDCYSLLVSTDAFDIWGQGTMVTVSS
chain 2: YELTQSLSVSVALGQTARTTCGGNNIGSKNVHWYQQRPGQAPVLVIYNNSNRPSGIPERFSGSNSGNTATLTISRAQAGDEADYYCQVWDGSTVVFGGGTKLTVL
B5: BD56-025 (protein)
chain 1: EMQLVESGGGLVQPGRSLRLSCAASGFTFDDYGMHWVRQAPGKGLKWVSGLSWNGGTIGYADSVKGRFIISRDNAKNSLYLQMNSLRAEDTALYYCTKDIGYYYDNSGYYVDYYVMDVWGQGTTVTVSS
chain 2: QSVLTQPPSVSAAPGQKVTISCSGSSSNIGNNYVSWYQQVPGTAPKLLIYDNNKRPSGIPDRFSGSKSGTSATLGITGLLTGDGADYYCGTWDSSLSVVVFGGGTKLTVL
B6: BD56-022 (protein)
chain 1: EVQLVESGGGLVQPGGSLRLSCVASGFTFSSYWMHWVRQAPGKGLVWVSRIHPDGTFTSYAESVKGRFSISRDNAKNTLYLQMNSLRAEDTALYYCARDYDILTNYYSADPDVFDIWGQGTMVTVSS
chain 2: DIVMTQSPDSLPVSLGERATINCKSSQSLLYSSNNKNYLAWYQQKPGQPPKLLIYWASTRESGVPDRFSGSGSGTEFTLTISSLQAEDVAVYHCQQYYDPPYTFGQGTKLEIK

molecular target: SARS-CoV-2 Omicron BA.1 spike pseudovirus; assay: pseudovirus neutralization IC50; higher = weaker neutralization
Method: (§1)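 Single-round VSV luciferase pseudovirus mixed with antibody dilutions for 1 h and put on Huh-7 cells for about a day; IC50 from the dose curve.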

| Binder | pseudovirus neutralization IC50 [µg/mL] |
| --- | --- |
| B1 | 0.001 |
| B2 | 0.00296 |
| B3 | 0.151 |
| B4 | 0.743 |
| B5 | 0.113 |
| B6 | 0.00234 |

molecular target: SARS-CoV-2 Omicron BA.2 spike pseudovirus; assay: as above
Method: as §1

| Binder | pseudovirus neutralization IC50 [µg/mL] |
| --- | --- |
| B1 | 0.000805 |
| B2 | 0.00314 |
| B3 | 0.267 |
| B4 | 1.6 |
| B5 | 0.166 |
| B6 | 0.00275 |

molecular target: SARS-CoV-2 Omicron BA.2.75 spike pseudovirus; assay: as above
Method: as §1

| Binder | pseudovirus neutralization IC50 [µg/mL] |
| --- | --- |
| B1 | 0.000519 |
| B2 | 0.00483 |
| B3 | 0.177 |
| B4 | 1.57 |
| B5 | 0.118 |
| B6 | 0.00418 |

molecular target: SARS-CoV-2 Omicron BA.5 spike pseudovirus; assay: as above
Method: as §1

| Binder | pseudovirus neutralization IC50 [µg/mL] |
| --- | --- |
| B1 | 0.874 |
| B2 | 0.00272 |
| B3 | 0.237 |
| B4 | 1.71 |
| B5 | 2.68 |
| B6 | 0.00208 |

molecular target: SARS-CoV-2 Omicron BQ.1.1 spike pseudovirus; assay: as above
Method: as §1

| Binder | pseudovirus neutralization IC50 [µg/mL] |
| --- | --- |
| B1 | 0.809 |
| B2 | > 10 |
| B3 | > 10 |
| B4 | 3.04 |
| B5 | > 10 |
| B6 | > 10 |

molecular target: SARS-CoV-2 Omicron XBB spike pseudovirus; assay: as above
Method: as §1

| Binder | pseudovirus neutralization IC50 [µg/mL] |
| --- | --- |
| B1 | 9.19 |
| B2 | 4.52 |
| B3 | > 10 |
| B4 | 2.45 |
| B5 | > 10 |
| B6 | > 10 |

molecular target: SARS-CoV-2 early D614G spike pseudovirus; assay: as above
Method: as §1

| Binder | pseudovirus neutralization IC50 [µg/mL] |
| --- | --- |
| B1 | 0.001 |
| B2 | 0.001 |
| B3 | 0.225 |
| B4 | 0.0847 |
| B5 | 0.0771 |
| B6 | 0.00377 |
